Measured data: PubChem BioAssay AID1224833 (University of Georgia, 2016)

Aim: 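Human genes whose knock-down alters rotavirus replication in monkey cells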 (primary screen)
Cell system: monkey MA104 kidney cells
Reagents: siRNA pool against human genes, 50 nM
Time to read-out: 48 h knock-down before infection; read 24 h after infection
Treatment: infection with rotavirus strain RV3 two days after transfection; infectious dose for this stage not given
Measured: 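z-score of rotavirus antigen signal per well, from a fluorescent immunoassay, relative to non-targeting control wells on the same plate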
Direction: z-score vs non-targeting control: higher = more rotavirus replication than with non-targeting control
Call rule: In these data the active calls have z-score vs non-targeting control at about -1 or lower, or at about 1 or higher
Meaning of the calls: active = z-score beyond 1 either way; inactive = z-score within 1 of zero
Here is one part, drawn at random, of about 12,000 deposited reagents. In the full data, about 5,600 (46%) got an active call. 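Active calls cover z-scores past 1 in both directions, so they include lowered as well as raised rotavirus replication.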 Entries without a mark were called inactive. Reagent sequences are not shown.

With knock-down of CSF2 the results were z-score vs non-targeting control 2.3 (active).
For COLQ, the values are z-score vs non-targeting control -1.08 (active).
TSPAN8 scored z-score vs non-targeting control 0.0284.
Depletion of APOB resulted in: z-score vs non-targeting control 1.4 (active).
ART4 scored z-score vs non-targeting control -1.63 (active).
For MXI1, the values are z-score vs non-targeting control 0.863.
Depletion of STX8 resulted in: z-score vs non-targeting control -0.941.
NPAS3 gave z-score vs non-targeting control -1.95 (active).
ERH scored z-score vs non-targeting control -0.386.
TUT7 showed z-score vs non-targeting control -1.87 (active).
Silencing of MAF1 resulted in: z-score vs non-targeting control 0.273.
Against FAM234B, the values are z-score vs non-targeting control 1.2 (active).
CTAG1B gave z-score vs non-targeting control -0.451.
Against REEP4, the values are z-score vs non-targeting control -0.632.
With knock-down of LTAP1, the screen gave z-score vs non-targeting control 1.04 (active).
ADH4 showed z-score vs non-targeting control -0.793.
Knock-down of OR4C6 came out at: z-score vs non-targeting control -1.41 (active).
With knock-down of STC2, the record shows z-score vs non-targeting control 1.23 (active).
NLRP13 gave z-score vs non-targeting control 0.632.
Depletion of HOXA11 came out at: z-score vs non-targeting control 0.871.
Knock-down of KIF26B came out at: z-score vs non-targeting control 1.21 (active).
Depletion of LINC03040 came out at: z-score vs non-targeting control -1.37 (active).
NKD1 gave z-score vs non-targeting control 0.689.
Silencing of LAMB3 gave: z-score vs non-targeting control 1.79 (active).
For AQP2, the entry reads z-score vs non-targeting control -1.06 (active).
Depletion of ABCF2 gave: z-score vs non-targeting control -1.75 (active).
DBX2 showed z-score vs non-targeting control -1.54 (active).
SSTR1 scored z-score vs non-targeting control -1.21 (active).
CEBPG showed z-score vs non-targeting control -0.712.
CCK scored z-score vs non-targeting control -0.59.
Depletion of DSCAM came out at: z-score vs non-targeting control -0.942.
After knock-down of SLC25A22, the record shows z-score vs non-targeting control -2.08 (active).
ANKRD28 scored z-score vs non-targeting control -1.32 (active).
With knock-down of NDRG4, the record shows z-score vs non-targeting control -0.453.
After knock-down of DES the results were z-score vs non-targeting control -0.707.
Silencing of DAP3 resulted in: z-score vs non-targeting control -1.8 (active).
With knock-down of OR51B5, the screen gave z-score vs non-targeting control 1.42 (active).
With knock-down of RBM3 the results were z-score vs non-targeting control -1.47 (active).
Against BRD9 the deposit lists z-score vs non-targeting control -1.45 (active).
GALP gave z-score vs non-targeting control 1.32 (active).
After knock-down of UBL5, the record shows z-score vs non-targeting control -1.08 (active).
Against GLRX, the entry reads z-score vs non-targeting control -1.48 (active).
After knock-down of TLX1NB, the record shows z-score vs non-targeting control 0.964.
After knock-down of RICTOR the results were z-score vs non-targeting control 1.11 (active).
Against KRTAP20-3, the values are z-score vs non-targeting control 0.404.
Against IL12A the deposit lists z-score vs non-targeting control 0.5.
With knock-down of DCAF4L2, the screen gave z-score vs non-targeting control -2.42 (active).
After knock-down of ELK3, the screen gave z-score vs non-targeting control -1.74 (active).
Depletion of B4GALNT1 gave: z-score vs non-targeting control -1.55 (active).
Against HSD3B2, the values are z-score vs non-targeting control 0.591.
ELMO2 showed z-score vs non-targeting control 0.696.
ROBO4 showed z-score vs non-targeting control 0.639.
SYTL1 showed z-score vs non-targeting control -0.566.
For AGPAT5 the deposit lists z-score vs non-targeting control 0.0183.
Against ATP1A3, the values are z-score vs non-targeting control -0.939.
With knock-down of CRNKL1, the record shows z-score vs non-targeting control -1.21 (active).
For BEND7, the values are z-score vs non-targeting control -1.5 (active).
CADM4 showed z-score vs non-targeting control -1.42 (active).
PRR5 scored z-score vs non-targeting control 1.51 (active).
NSMF gave z-score vs non-targeting control 1.5 (active).
